The source of these data is patent US9937234B2, “Compositions and methods for using and identifying antimicrobial agents” (priority 2013, dated 2018).

“Also recorded” adds a separate entry of the source.

This data set deals with B. anthracis spores and vegetative cells. Format: cell-based, Bacillus anthracis.

As to human CXCL10, the localization in spores result is “localized internal to (not outside) the protective exosporium layer of the spores; also recorded: localizes to spore structures within and internal to the exosporium, namely, to the spore coat and spore cortex”; the “localization in vegetative cells” value is on record as “localized primarily to the cell membrane; also recorded: localizes to the cell membrane”.
